Measured values from several laboratories, pooled; numbers as filed in NIAID ChemDB.

All rows: tests in culture; agent: HIV-1; measure: inhibition

a–b is a range or a potency band.

smiles	tested at	cells	strain or isolate	conditions	read by	changes	result
O=C(O)C(O)c1ccccc1	10 µg/mL	U87 (CD4+ CXCR4+) + U87	IIIB	-	p24	-	56%
O=c1oc2cc(O)c(O)cc2c(O)c1-c1coc2c1c(=O)oc1cc(O)c(O)cc12	0.01 µM	MT-4	IIIB	-	MTT	-	0%
Fc1cccc(Cl)c1CCNC(=S)Nc1nccs1	100 µg/mL	MT-4	-	-	cytopathic effect / XTT	-	16–100%
CC(=O)N1C(=O)CC(=O)N(c2nnc(C)c(/C=C/c3ccc(N(C)C)cc3)n2)C1=S	0.1 µM	CEM	-	-	cytopathic effect / XTT	-	3.99%
CC1/C=C/C=C/C=C/C=C/C=C/C=C/C=C/C(OC2OC(C)C(O)C(N)C2O)CC(O)C(C(=O)O)C(O)CC(=O)CC(O)CC(O)CC(O)CC(=O)CCCC(=O)CC(=O)OC1	0.01 µg/mL	H9	IIIB	-	p24 / antigen	-	0%
O=C(CCCCCCCCCCC(=O)Nc1cc(S(=O)(=O)O)cc2cc(S(=O)(=O)O)cc(O)c12)Nc1cc(S(=O)(=O)O)cc2cc(S(=O)(=O)O)cc(O)c12	2 µg/mL	MOLT-3	-	-	syncytia	-	49%
CCN(CC)C(=S)S	0.0000075 µg/mL	H9	LAV	-	p24	-	44%
CN1C(=O)N(C)C(=O)C2(C1=O)[C@@H](c1ccco1)CC(=O)C[C@H]2[C@H]1COC(C)(C)O1	0.0001 µM	SupT1	NL4-3	-	MTT	-	>30%
CCCCC(=O)NCCCCCCCC(=O)O	1 µg/mL	CEM	-	-	cytopathic effect	-	1%
COC(=O)c1cccc2c(C(=O)C(=O)N3CCN(C(=O)c4ccccc4)CC3C(F)(F)F)c[nH]c12	10 µM	HeLa + HELA CD4+/CCR5	-	-	luciferase	-	>98%
Cc1cn([C@H]2C[C@H](N=[N+]=[N-])[C@@H](COP(=O)(O)OCCO[C@H]3O[C@H](CO)[C@@H](O)[C@H](O)[C@@H]3O)O2)c(=O)[nH]c1=O	25 µM	CEM	LAV-Bru	15 d	RT activity	-	98%
Nc1ccc(S(=O)(=O)O)c2cccc(O)c12	20 µg/mL	MOLT-3	-	-	syncytia	-	73%
CC1(C)[C@@H](O[C@H]2O[C@H](C(=O)O)[C@@H](O)[C@H](O)[C@H]2O[C@@H]2O[C@H](C(=O)O)[C@@H](O)[C@H](O)[C@H]2O)CC[C@]2(C)[C@H]3C(=O)C=C4[C@@H]5C[C@@](C)(C(=O)O)CC[C@]5(C)CC[C@@]4(C)[C@]3(C)CC[C@@H]12	6 µM	MT-4	IIIB	-	cytopathic effect	-	33%
CCCCCCCCCCCCCCc1sc(NC(=O)NCCc2ccccc2)nc1-c1ccc(Cl)cc1	100 µg/mL	MT-4	-	-	cytopathic effect / XTT	-	33%
CC(=O)CCC(=O)NCCCOCCOCCCNC(=O)CNC(=O)[C@H](CS)NC(=O)[C@@H](NC(=O)[C@@H](NC(=O)[C@H](CO)NC(=O)[C@@H](N)CS)C(C)C)[C@@H](C)O	0.3 µM	PBMC(PHA STIM.) + PBMC	p13	-	p24	-	76%
CCCCCC(=O)NCCCCCCC(=O)O	10 µg/mL	CEM	-	-	cytopathic effect	-	1%
O=C(O)C[C@@H]1C(=O)O[C@H]2[C@@H]3OC(=O)c4cc(O)c(O)c(O)c4-c4c(cc(O)c(O)c4O)C(=O)OC[C@H]2O[C@@H](OC(=O)c2cc(O)c(O)c(O)c2)[C@@H]3OC(=O)c2cc(O)c(O)c3c2[C@H]1[C@H](O)C(=O)O3	1 µg/mL	H9	IIIB	-	p24	-	50%
N#Cc1cc(Cl)cc(Oc2c(Cl)ccc3c2cnn3Cc2[nH]nc3ncccc23)c1	0.064 µM	MT-4	-	50% human serum	-	-	>95%
COC(=O)C1=CN(C(=O)C(=O)c2c[nH]c3c(C(=O)OC)cccc23)CCN1C(=O)c1ccccc1	10 µM	HeLa + HELA CD4+/CCR5	-	-	luciferase	-	92%
CCCCCCCCCCCCCCCCOP(=O)(OC[C@H]1OC(O)[C@@H](O)[C@@H](O)[C@@H]1O)OC[C@H]1O[C@@H](n2cc(C)c(=O)[nH]c2=O)C[C@@H]1N=[N+]=[N-]	1 µM	CEM	LAV-Bru	15 d	RT activity	-	97%
CC(C)[C@H](NC(=O)[C@H](CO)NC(=O)[C@@H](N)CSSCC(=O)O)C(=O)N[C@H](C(=O)N[C@@H](CSSCC(=O)O)C(=O)NCC(=O)O)[C@@H](C)O	0.3 µM	PBMC(PHA STIM.) + PBMC	p13	-	p24	-	73%
O=S(=O)(O)c1c2ccccc2c(-c2c3nc(c(-c4c5ccccc5c(S(=O)(=O)O)c5ccccc45)c4ccc([nH]4)c(-c4c5ccccc5c(S(=O)(=O)O)c5ccccc45)c4nc(c(-c5c6ccccc6c(S(=O)(=O)O)c6ccccc56)c5ccc2[nH]5)C=C4)C=C3)c2ccccc12	5 µg/mL	MAGI	IIIB	-	β-galactosidase	-	70%
N=C1Sc2ccccc2C2=NCCCN12	3.8 µM	TZM-bl	Jv1083	-	β-galactosidase	-	90%
O=C(C(=O)N1CCN(C(=O)N2NC=CS2)CC1)c1c[nH]c2cccc(F)c12	10 µM	HeLa + HELA CD4+/CCR5	-	-	luciferase	-	88%
CC1=NNC(N)=N/C1=C/C(Sc1ccc(Cl)cc1)c1ccc([N+](=O)[O-])cc1	20 µM	MT-2	RF	-	-	-	43.31%
Cn1ccnc1CCCCCCCCCCCC(=O)O	10 µg/mL	CEM	-	-	cytopathic effect	-	31%
S=C(NCCc1ccccc1)N1CCOCC1	0.1 µg/mL	MT-4	-	-	cytopathic effect / XTT	-	0%
O=S(=O)(O)c1ccc(-c2c3nc(c(-c4ccc(S(=O)(=O)O)cc4)c4ccc([n-]4)c(-c4ccc(S(=O)(=O)O)cc4)c4nc(c(-c5ccc(S(=O)(=O)O)cc5)c5ccc2[n-]5)C=C4)C=C3)cc1.[Gd+3]	50 µg/mL	MAGI	IIIB	-	β-galactosidase	-	69%
O=C(O)C1=C[C@@H](OC(=O)c2cc(O)c(O)c(O)c2)[C@@H](OC(=O)c2cc(O)c(O)c(O)c2)[C@H](OC(=O)c2cc(O)c(O)c(O)c2)C1	20 µg/mL	H9	IIIB	-	p24	-	23%
Cc1nnc(N)nc1C/C=C/C(Sc1ccc(Cl)cc1)c1cc(Cl)cc(Cl)c1	6.33 µM	MT-2	RF	-	-	-	36.33%
O=C(NCCc1ccccc1)Nc1ncccn1	10 µg/mL	MT-4	-	-	cytopathic effect / XTT	-	23%
O=C(O)C[C@H]1C(=O)O[C@H]2[C@H](OC(=O)c3cc(O)c(O)c(O)c3)[C@@H](OC(=O)c3cc(O)c(O)c4c3[C@H]1[C@H](O)C(=O)O4)[C@H](OC(=O)c1cc(O)c(O)c(O)c1)O[C@@H]2COC(=O)c1cc(O)c(O)c(O)c1	0.2 µg/mL	H9	IIIB	-	p24	-	0%
NCCSSCCN	100 µM	Macrophage	BaL	-	p24	-	65%
N=C1Sc2ccccc2C2=NCCCN12	4.67 µM	PBMC	92UG029	-	MTS	-	90%
Cc1nnc(N)nc1/C=C/c1ccc(Cl)cc1Cl	6.33 µM	CEM	-	-	cytopathic effect / XTT	-	2.28%
C[C@H]1[C@H](O)[C@@H](C)/C=C/C=C/C=C/C=C/C=C/C=C/C=C/[C@H](O[C@@H]2O[C@H](C)[C@@H](O)[C@H](N)[C@@H]2O)C[C@@H]2O[C@](O)(C[C@@H](O)C[C@@H](O)CC[C@H](O)[C@@H](O)C[C@@H](O)CC(=O)O[C@H]1C)C[C@H](O)[C@H]2C(=O)O	3.8 µM	PBMC	RU132 CLADE G R5 (NSI)	-	p24 / RT activity	-	90%
Nc1ccn([C@H]2CC[C@@H](CO)O2)c(=O)n1	0.01 µM	MT-2	LAV	-	RT activity	-	37%
Nc1ncnc2c1ncn2COCCOP(=O)([O-])O[C@@H]1C[C@@H](COP(=O)([O-])O[C@@H]2C[C@@H](COP(=O)([O-])O[C@@H]3C[C@@H](CO)O[C@H]3n3cnc4c(N)[n+](Cc5ccccc5)cnc43)O[C@H]2n2cnc3c(N)ncnc32)O[C@H]1n1cnc2c(N)ncnc21	0.1 µM	SupT1 + Sup-T1	-	-	syncytia	-	29%
O=C(C(=O)N1CCN(C(=O)c2ccc(Br)cc2S)CC1)c1c[nH]c2cccc(Cl)c12	10 µM	HeLa + HELA CD4+/CCR5	-	-	luciferase	-	>98%
Cc1c2ccnc(Cl)c2cc2c3cn(C)ccc-3nc12	1 µM	Macrophages	GAR (resistant strain)	-	p24 / ELISA	-	100%
O=C(C(=O)N1CCN(C(=O)c2cscn2)CC1)c1c[nH]c2cccc(F)c12	10 µM	HeLa + HELA CD4+/CCR5	-	-	luciferase	-	>98%
CCc1c(Sc2ccccc2)n(COCc2ccccc2)c(=O)[nH]c1=O	0.028 µM	MT-4	A018C	-	p24	-	90%
CC(=O)N(C)CCN(C)c1nc(C(=O)NCc2ccc(F)cc2)c(O)c2ncccc12	0.156 µM	MT-4	-	10% FBS	p24	-	>95%
CCCCCCC(=O)NCCCCCC(=O)O	10 µg/mL	CEM	-	-	cytopathic effect	-	4%
N#Cc1cc(Cl)cc(Oc2c(Cl)ccc3c2nnn3Cc2[nH]nc3nc(N)ccc23)c1	0.037 µM	MT-4	-	-	-	Y181C	>95%
COC(=O)c1cccc2c(C(=O)C(=O)N3CCN(C(=O)c4ccccc4)C[C@H]3C)c[nH]c12	10 µM	HeLa + HELA CD4+/CCR5	-	-	luciferase	-	>98%
Nc1ncnc2c1ncn2COCCOP(=O)([O-])O[C@@H]1[C@H](O)[C@@H](COP(=O)([O-])O[C@@H]2[C@H](O)[C@@H](CO)O[C@H]2n2cnc3c(N)ncnc32)O[C@H]1n1cnc2c(N)ncnc21	300 µM	SupT1 + Sup-T1	-	-	syncytia	-	99%
C=C(C)[C@@H]1CC[C@]2(C(=O)NCCCCCCCC(=O)N[C@@H](CC(C)C)[C@@H](O)CC(=O)O)CC[C@]3(C)[C@H](CC[C@@H]4[C@@]5(C)CC[C@H](O)C(C)(C)[C@@H]5CC[C@]43C)[C@@H]12	10 µM	HeLa P4 + HeLa	LAI	-	syncytia	GP41-K106R	>99%
Cc1nc(NC(=O)NCCc2ccccc2)sc1C	0.1 µg/mL	MT-4	-	-	RT activity	-	1%
N#Cc1cc(Cl)cc(Oc2c(Cl)ccc3c2nnn3Cc2[nH]nc3ncccc23)c1	0.023 µM	MT-4	-	50% human serum	-	-	>95%
O=C1O[C@@H]2[C@@H](OC(=O)c3cc(O)c(O)c(O)c3-c3c1cc(O)c(O)c3O)[C@@H](O)O[C@@H]1COC(=O)c3cc(O)c(O)c(O)c3-c3c(O)c(O)c4oc(=O)c5c(c(O)c(O)c6oc(=O)c3c4c65)-c3c(cc(O)c(O)c3O)C(=O)O[C@@H]21	1 µg/mL	H9	IIIB	-	p24	-	20%
CCCCCCCCC(=O)NCCCC(=O)O	1 µg/mL	CEM	-	-	cytopathic effect	-	8%
Cc1nnc(NC(=S)Nc2ccccc2)nc1/C=C/c1ccc(N(C)C)cc1	0.2 µM	CEM	-	-	cytopathic effect / XTT	-	33.01%
CCOc1ccccc1CCNC(=S)Nc1nccs1	10 µg/mL	MT-4	-	-	cytopathic effect / XTT	-	100%
CC(=O)N1CCC(C(=O)N(CCCN2CCC(Cc3ccc(C(N)=O)cc3)CC2)c2ccc(C)c(Cl)c2)CC1	0.015 µM	PBMC	HTN Clinical isolates	-	p24	-	90%
O=C1OCC2OC(O)C(O)C(O)C2OC(=O)c2cc(O)c(O)c(O)c2-c2c(O)c(O)c3oc(=O)c4c(c(O)c(O)c5oc(=O)c2c3c54)-c2c1cc(O)c(O)c2O	0.2 µg/mL	H9	IIIB	-	p24	-	10%
O=Cc1ccc(F)c2c(C(=O)C(=O)N3CCN(C(=O)c4ccccc4)CC3)c[nH]c12	10 µM	HeLa + HELA CD4+/CCR5	-	-	luciferase	-	>98%
CCOC(=O)/C=C/c1ccc(OC(=O)CCC(=O)Oc2c(C)c(C)c3c(c2C)CC[C@@](C)(CCC[C@H](C)CCC[C@H](C)CCCC(C)C)O3)cc1	10 µM	Macrophage + Monocytes/macrophages	BaL	-	-	-	55%
CC(C)(C)c1csc(NC(=O)NCCc2ccccc2)n1	100 µg/mL	MT-4	-	-	cytopathic effect / XTT	-	0%
CC(C)c1cnn2c(NCc3ccc(-c4ccccn4)cc3)nc(N[C@H](CO)C(C)O)nc12	0.05 µM	ACH2	-	-	trypan blue	-	50%
CC(C)[C@H](NC(=O)[C@H](Cc1ccccc1)C[C@H](O)[C@H](Cc1ccccc1)NC(=O)OC(C)(C)C)C(=O)N[C@@H](Cc1ccccc1)C(=O)N1CCOCC1	0.1 µM	MT-2	pLAI	-	RT activity	-	90%
CC(=O)N1C(=O)[C@@H](Cc2ccc(Cl)cc2)NC1=S	10 µg/mL	MT-4	-	-	cytopathic effect / XTT	-	3%
Nc1ncnc2c1ncn2COCCOP(=O)([O-])O[C@@H]1[C@H](O)[C@@H](COP(=O)([O-])O[C@@H]2[C@H](O)[C@@H](COP(=O)([O-])O[C@@H]3[C@H](O)[C@@H](CO)O[C@H]3n3cnc4c(N)ncnc43)O[C@H]2n2cnc3c(N)ncnc32)O[C@H]1n1cnc2c(N)ncnc21	100 µM	SupT1 + Sup-T1	-	-	p24	-	41%
CCCCCCCCNCC(O)CCCCCCCCCn1c(=O)c2c(ncn2C)n(C)c1=O	5 µM	U1(HIV-1 (LAV)) + U1	LAV	-	p24	-	80%

Blank or dashed fields: not listed here. Rows are shuffled and stem from different studies. Percent inhibition refers to the dose given; in toxicity tests it is the harm to the cells.